Source: PMC9457997, “2-(Nitroaryl)-5-Substituted-1,3,4-Thiadiazole Derivatives with Antiprotozoal Activities: In Vitro and In Vivo Study” (Molecules, 2022)

Test system: L. donovani, strain MHOM-ET-67/L82 axenically grown amastigotes
Assay: In vitro activity against L. donovani axenic amastigotes
Format: cell-based
Conditions: selectivity index
Description: Miltefosine and benznidazole were used as reference drugs. […] In vitro activity against the protozoan parasites T. b. rhodesiense, T.cruzi, L. donovani and cytotoxicity assessment against L6 cells were determined as reported previously. The following strains, parasite forms, and positive controls were used: T. b. rhodesiense STIB 900 bloodstream forms, melarsoprol (received from WHO, Arsobal Sanofi); T.cruzi Tulahuen C2C4 intracellular amastigotes, benznidazole (received from DNDi synthesized by Epichem Pty Ltd., Murdoch, Australia); L. donovani MHOM-ET-67/L82 axenically grown amastigotes and intracellular amastigotes, miltefosine (Sigma M5571).

## Cn1c([N+](=O)[O-])cnc1-c1nnc(N2CCCCC2)s1 [Compound 18a]
  SI (IC50 in L6 cells/IC50 in L. donovani axenic amastigotes): >643
